Pooled drug test results. Numbers come from NIAID ChemDB, via PubChem.

Shared fields: tests in culture; species: Human cytomegalovirus; cell line: HFF; measure: EC50

Conditions beyond the fields shown may differ between rows. ECn is the concentration giving n% inhibition of infection, replication or growth.

{"smiles": "CN1C=CCC(C(=O)O[C@H]2C[C@H](n3cc(/C=C/I)c(=O)[nH]c3=O)O[C@@H]2CO)=C1", "method": "cytopathic effect", "result": ">40 µM"}
{"smiles": "Nc1ncnc2c1c(I)cn2COC(CO)CO", "strain or isolate": "TOWNE", "method": "virus yield", "result": "<0.9 µM"}
{"smiles": "Nc1nc2c(ncn2/C=C2/CC2(CO)CO)c(=O)[nH]1", "strain or isolate": "TOWNE", "method": "plaque count", "result": "2.4 µM"}
{"smiles": "Nc1nc(NC2CC2)c2ncn(C=C3CC3CO)c2n1", "strain or isolate": "C9208/5-4-2", "method": "plaque count", "result": "4 µM"}
{"smiles": "CC(=O)OCC(COC(C)=O)OCn1cnc2c(=O)[nH]c(N)nc21", "method": "plaque count", "result": "0.54 µg/mL"}
{"smiles": "Nc1nc2ncn(/C=C3/C(F)C3(CO)CO)c2c(=O)[nH]1", "strain or isolate": "AD169", "method": "cytopathic effect", "result": ">300 µM"}
{"smiles": "Nc1ncnc2c1ncn2[C@H]1C[C@@]12C[C@H]2CO", "strain or isolate": "TOWNE", "method": "plaque count", "result": ">100 µM"}
{"smiles": "COc1cc(NC(=O)c2ccccc2F)cc(C)c1NC(=S)NC(C)c1ccc(F)cc1", "method": "virus yield", "result": ">10 µg/mL"}
{"smiles": "CN1N=C(N)c2cn([C@@H]3O[C@H](COP(=O)(O)O)[C@@H](O)[C@H]3O)c3ncnc1c23", "method": "plaque count", "result": "0.8 µM"}
{"smiles": "CN(C)n1cc(C(=O)O)c(=O)c2cc(N)c(N3CCN(c4ccccn4)CC3)cc21", "strain or isolate": "AD169", "method": "plaque count", "result": "1.2 µM"}
{"smiles": "CN(C)c1cccc2c(S(=O)(=O)Nc3ccc(NC(=O)C(C)(C)CO)cc3)cccc12", "strain or isolate": "TOWNE", "method": "plaque count", "result": "1.3 µM"}
{"smiles": "CCCCCCCC/C=C\\CCCCCCCOCCCOP(=O)(O)CO[C@H](CO)Cn1ccc(N)nc1=O", "strain or isolate": "Coffman", "method": "plaque count", "result": "0.005 µM"}
{"smiles": "Nc1nc2c(ncn2COC(CO)CO)c(=O)[nH]1", "method": "plaque count", "result": "3.9 µM"}
{"smiles": "NC(=S)c1cn(COCCO)c2ncnc(N)c12", "method": "plaque count", "result": "7 µM"}
{"smiles": "CCC(CO)n1cc(C(=O)O)c(=O)c2cc(N)c(N3CCN(c4ccccn4)CC3)cc21", "strain or isolate": "AD169", "method": "plaque count", "result": ">25 µM"}
{"smiles": "CN1N=C(N)c2cn([C@@H]3O[C@H](CO)[C@@H](O)[C@H]3O)c3nc(Cl)nc1c23", "method": "plaque count", "result": "100 µM"}
{"smiles": "O=c1ccn([C@@]23C[C@H](O)[C@@H](CO)[C@@H]2C3)c(=O)[nH]1", "method": "plaque count", "result": ">100 µg/mL"}
{"smiles": "Cn1c(Cl)c([C@@H]2O[C@H](CO)[C@@H](O)[C@H]2O)c2cc(Cl)c(Cl)cc21", "method": "plaque count", "result": ">100 µM"}
{"smiles": "O[C@@H]1[C@H](O)[C@H](O)CO[C@H]1n1c(Br)nc2cc(Cl)c(Cl)cc21", "strain or isolate": "C8914-6 drug-resistant", "method": "plaque count", "result": "10 µM"}
{"smiles": "CCCOc1nc(N)nc2c1ncn2/C=C1/C[C@@H]1CO", "method": "plaque count", "result": "2 µM"}
{"smiles": "Nc1nc2c(ncn2C=C2CC2CO)c(=O)[nH]1", "strain or isolate": "AD169", "method": "plaque count", "result": "1.2 µM"}
{"smiles": "Nc1ncnc2c1ncn2[C@H]1C[C@]12C[C@@H]2CO", "strain or isolate": "TOWNE", "method": "plaque count", "result": "28 µM"}
{"smiles": "O=C1O[C@H](CO)C[C@]1(O)CO", "strain or isolate": "AD169", "result": ">100 µM"}
{"smiles": "Nc1nc2c(ncn2C=C2CC2CO)c(=O)[nH]1", "strain or isolate": "C8708/17-1-1", "method": "plaque count", "result": "9.4 µM"}
{"smiles": "Nc1nc2c(ncn2COC(CO)CO)c(=O)[nH]1", "strain or isolate": "TOWNE", "method": "plaque count", "result": "13.3 µM"}
{"smiles": "O=c1[nH]c(=O)n([C@H]2C[C@H](O)[C@@H](CO)O2)cc1C(F)(F)F", "strain or isolate": "AD169", "method": "virus yield", "result": "0.012 µM"}
{"smiles": "Nc1ncnc2c1ncn2[C@H]1C[C@@]12C[C@@H]2CO", "strain or isolate": "TOWNE", "method": "plaque count", "result": ">100 µM"}
{"smiles": "Cc1cn([C@@H]2O[C@H](CO)[C@H]2CO)c(=O)[nH]c1=O", "strain or isolate": "DAVIS", "method": "plaque count", "result": ">100 µg/mL"}
{"smiles": "Nc1ncnc2c1ncn2[C@H]1C[C@]12C[C@H]2CO", "strain or isolate": "TOWNE", "method": "plaque count", "result": "20 µM"}
{"smiles": "Nc1cc2c(=O)c(C(=O)O)cn(C3CC3)c2cc1N1CCN(c2ccccn2)CC1", "strain or isolate": "AD169", "method": "plaque count", "result": "1 µM"}
{"smiles": "OC[C@H]1O[C@@H](n2c(Br)nc3cc(Cl)c(Cl)cc32)[C@H](O)[C@@H]1O", "strain or isolate": "CH", "method": "plaque count", "result": "0.4 µM"}
{"smiles": "Nc1ncnc2c1c(Cl)cn2COC(CO)CO", "strain or isolate": "TOWNE", "method": "virus yield", "result": "<8 µM"}
{"smiles": "Nc1nc2c(ncn2/C=C2/CC2(CO)CO)c(=O)[nH]1", "strain or isolate": "AD169", "method": "cytopathic effect", "result": ">0.49 µM"}
{"smiles": "Cn1ncc2c3cc(Cl)c(Cl)cc3n([C@@H]3O[C@H](CO)[C@@H](O)[C@H]3O)c21", "method": "plaque count", "result": "0.7 µM"}
{"smiles": "O=C(NCc1ccc(Cl)cc1)c1cn(N2CCOCC2)c2ccc(CN3CCOCC3)cc2c1=O", "strain or isolate": "DAVIS", "method": "plaque count", "result": "0.6 µM"}
{"smiles": "CN1C=CCC(C(=O)O[C@H]2C[C@H](n3cc(I)c(=O)[nH]c3=O)O[C@@H]2CO)=C1", "method": "cytopathic effect", "result": "178 µM"}
{"smiles": "O=C(Nc1ccn([C@H]2C[C@](O)(CO)CO2)c(=O)n1)c1ccccc1", "strain or isolate": "AD169", "result": ">100 µM"}
{"smiles": "Nc1nc2c(ncn2COC(CO)CO)c(=O)[nH]1", "strain or isolate": "TOWNE", "method": "plaque count", "result": "2.3 µM"}
{"smiles": "CNc1nnnc2c1ncn2[C@@H]1O[C@H](CO)[C@@H](O)[C@H]1O", "method": "plaque count", "result": ">100 µM"}
{"smiles": "NC[C@H]1C[C@@H](n2cnc3c(N)ncnc32)[C@H](O)[C@@H]1O", "method": "cytopathic effect", "result": "17.5 µg/mL"}
{"smiles": "OC[C@@H]1O[C@@H](n2c(Br)nc3cc(Cl)c(Cl)cc32)[C@H](O)[C@H]1O", "method": "plaque count", "result": "21 µM"}
{"smiles": "CSc1nnnc2c1ncn2[C@@H]1O[C@H](CO)[C@@H](O)[C@H]1O", "method": "plaque count", "result": "16 µM"}
{"smiles": "Cn1cc(C(=O)NCc2ccc(Cl)cc2)c(=O)c2cc(CN3CCOCC3)ccc21", "strain or isolate": "C8708/17-1-1", "method": "plaque count", "result": "3.7 µM"}
{"smiles": "Nc1ccn([C@H]2C[C@](O)(CO)CO2)c(=O)n1", "strain or isolate": "AD169", "result": ">100 µM"}
{"smiles": "C=CCNc1nc(N)nc2c1ncn2/C=C1/C[C@@H]1CO", "method": "plaque count", "result": "2.8 µM"}
{"smiles": "O=C(NCc1ccc(Cl)cc1)c1cn2c3c(cc(CN4CCOCC4)cc3c1=O)OC(c1cccnc1)C2", "strain or isolate": "DAVIS", "method": "plaque count", "result": "3.9 µM"}
{"smiles": "OC[C@H]1O[C@@H](n2cnc3cnnnc32)[C@H](O)[C@@H]1O", "method": "plaque count", "result": "40 µM"}
{"smiles": "C[C@H](NC(=S)Nc1ccc(NC(=O)c2csnn2)cn1)c1cc(C(F)(F)F)cc(C(F)(F)F)c1", "method": "virus yield", "result": "0.08 µg/mL"}
{"smiles": "C#CCNc1nc(N)nc2c1ncn2/C=C1/C[C@@H]1CO", "method": "plaque count", "result": "2.6 µM"}
{"smiles": "C=Cc1cn([C@H]2C[C@H](O)[C@@H](CO)O2)c(=O)[nH]c1=O", "method": "cytopathic effect", "result": "78.8 µM"}
{"smiles": "Cc1cn([C@H]2C[C@](O)(CO)CO2)c(=O)[nH]c1=O", "strain or isolate": "AD169", "result": ">100 µM"}
{"smiles": "CCCCCOc1nc(N)nc2c1ncn2/C=C1/C[C@@H]1CO", "method": "plaque count", "result": "1.4 µM"}
{"smiles": "CC(C)Nc1nc2cc(Cl)c(Cl)cc2n1[C@@H]1O[C@@H](CO)[C@H](O)[C@H]1O", "method": "plaque count", "result": ">100 µM"}
{"smiles": "CCCC(=O)OCC(CO)OCn1cnc2c(=O)[nH]c(N)nc21", "method": "plaque count", "result": "0.53 µg/mL"}
{"smiles": "CN1N=C(N)c2cn([C@@H]3O[C@H](CO)[C@@H](O)[C@H]3O)c3nc(N)nc1c23", "method": "plaque count", "result": ">100 µM"}
{"smiles": "Nc1nc2c(ncn2COC(CO)CO)c(=O)[nH]1", "strain or isolate": "C9208/5-4-2", "method": "plaque count", "result": "2.4 µM"}
{"smiles": "Nc1ncnc2c1ncn2C=C1CC1CO", "strain or isolate": "AD169", "method": "plaque count", "result": "2.1 µM"}
{"smiles": "OCC(CO)OCn1cc(Cl)c2c(NO)ncnc21", "strain or isolate": "TOWNE", "method": "virus yield", "result": "<24 µM"}
{"smiles": "Nc1cc2c(=O)c(C(=O)O)cn(N)c2cc1N1CCN(c2ccccn2)CC1", "strain or isolate": "AD169", "method": "plaque count", "result": "19.5 µM"}
{"smiles": "Nc1nc2c(ncn2[C@H]2C[C@]23C[C@H]3CO)c(=O)[nH]1", "strain or isolate": "TOWNE", "method": "plaque count", "result": ">100 µM"}

8 of the rows above, restated:

{"smiles": "Nc1ncnc2c1ncn2[C@H]1C[C@@]12C[C@H]2CO", "strain or isolate": "TOWNE", "method": "plaque count", "result": ">100 µM"}
{"smiles": "O=C(NCc1ccc(Cl)cc1)c1cn2c3c(cc(CN4CCOCC4)cc3c1=O)OC(c1cccnc1)C2", "strain or isolate": "DAVIS", "method": "plaque count", "result": "3.9 µM"}
{"smiles": "Nc1cc2c(=O)c(C(=O)O)cn(N)c2cc1N1CCN(c2ccccn2)CC1", "strain or isolate": "AD169", "method": "plaque count", "result": "19.5 µM"}
{"smiles": "OCC(CO)OCn1cc(Cl)c2c(NO)ncnc21", "strain or isolate": "TOWNE", "method": "virus yield", "result": "<24 µM"}
{"smiles": "O[C@@H]1[C@H](O)[C@H](O)CO[C@H]1n1c(Br)nc2cc(Cl)c(Cl)cc21", "strain or isolate": "C8914-6 drug-resistant", "method": "plaque count", "result": "10 µM"}
{"smiles": "O=C1O[C@H](CO)C[C@]1(O)CO", "strain or isolate": "AD169", "result": ">100 µM"}
{"smiles": "O=C(NCc1ccc(Cl)cc1)c1cn(N2CCOCC2)c2ccc(CN3CCOCC3)cc2c1=O", "strain or isolate": "DAVIS", "method": "plaque count", "result": "0.6 µM"}
{"smiles": "O=c1ccn([C@@]23C[C@H](O)[C@@H](CO)[C@@H]2C3)c(=O)[nH]1", "method": "plaque count", "result": ">100 µg/mL"}